Biological target: Human immunodeficiency virus type 1 integrase (Human immunodeficiency virus 1, UniProt Q7ZJM1)
Experiment: Inhibition of recombinant HIV-1 integrase strand transfer activity using 32P 5' end-labeled linear 21'mer as substrate preincubated for 30 mins prior to substrate challenge by phosphorimaging analysis

An IC50 of 780 nM was found for `O=c1cc(-c2ccccc2)oc2cc(O)c(O)c(O)c12` [BAICALEIN] in this work.
